These are literature values, as cited in publication PMC8145641 (Cells, 2021).

The index is printed as in the source, without its formula.

The data set concerns T. gondii. As to conditions: thiosemicarbazides 1a–12a and drugs, as in the earlier paper; ref [25]; cited from earlier work.

Take `Nc1ccc(S(=O)(=O)Nc2ncccn2)cc1` [Sulfadiazine (SUL), Sulfadiazine, reference compound]: the “SI (selectivity index)” value is listed as less than 0.92.

Regarding `COc1cc(Cc2cnc(N)nc2N)cc(OC)c1OC` [Trimethoprim (TRI), Trimethoprim, reference compound], the “SI (selectivity index)” value is more than 2.64.

For the compound `Cc1nc[nH]c1C(=O)NNC(=S)Nc1cccc(Br)c1` [8a], the “SI (selectivity index)” value is on record as 15.20.

On to `Cc1nc[nH]c1C(=O)NNC(=S)Nc1ccccc1Cl` [4a], for which the “SI (selectivity index)” value is 17.69.

Take `Cc1nc[nH]c1C(=O)NNC(=S)Nc1ccc(I)cc1` [12a]: the “SI (selectivity index)” value is reported as 8.86.

For `Cc1nc[nH]c1C(=O)NNC(=S)Nc1ccc(Cl)cc1` [6a], the “SI (selectivity index)” value is 3.15.

On to `Cc1nc[nH]c1C(=O)NNC(=S)Nc1ccc(F)cc1` [3a], for which the “SI (selectivity index)” value is reported as 8.86.

As for `Cc1nc[nH]c1C(=O)NNC(=S)Nc1ccccc1I` [10a], the “SI (selectivity index)” value was 9.79.

On to `Cc1nc[nH]c1C(=O)NNC(=S)Nc1ccc(Br)cc1` [9a], for which the “SI (selectivity index)” value is recorded as 15.35.

Regarding `Cc1nc[nH]c1C(=O)NNC(=S)Nc1ccccc1Br` [7a], the “SI (selectivity index)” value is 17.91.

`Cc1nc[nH]c1C(=O)NNC(=S)Nc1cccc(I)c1` [11a]: the “SI (selectivity index)” value was 19.16.

For the compound `Cc1nc[nH]c1C(=O)NNC(=S)Nc1cccc(Cl)c1` [5a], the “SI (selectivity index)” value was 11.30.
